Results of unrelated studies side by side (data: NIAID ChemDB).

Shared fields: whole-cell or culture tests; agent: Pneumocystis carinii; measure: EC50

Neighbouring rows are from separate reports. An empty or dashed field is not shown. ECn: concentration that inhibits the pathogen or its effect by n%.

SMILES	method	setting	value
CC(C)(C)CN=C(N)c1ccc(N2CCCN(c3ccc(C(N)=NCC(C)(C)C)cc3)CC2)cc1	-	-	>1 µM
COc1cc(NC(C)CCCN2C(=O)[C@H](C)NC2(C)C)c2ncccc2c1	-	72 h	226 µM
NC(=NC1CCCCCC1)c1ccc(N2CCN(c3ccc(C(N)=NC4CCCCCC4)cc3)CC2)cc1	ATP	-	0.069 µg/mL
C(=C/COc1ccc(C2=NCCN2)cc1)/COc1ccc(C2=NCCN2)cc1	-	-	<0.2 µM
NC(=NCc1ccccc1)NC(=O)c1nc(Cl)c(N)nc1N	-	-	>100 µM
CC(=O)N(O)CCCCCNC(=O)CCC(=O)N(O)CCCCCNC(=O)CCC(=O)N(O)CCCCCN	-	-	<50 µM
N#Cc1ccc(N2CCN(c3ccc(C#N)cc3)CC2)cc1	ATP	-	>100 µg/mL
CCCCCN=C(N)c1ccc(N2CCCN(c3ccc(C(N)=NCCCCC)cc3)CC2)cc1	-	-	>1 µM
c1cc(N2CCN(c3ccc(C4=NCCCN4)cc3)CC2)ccc1C1=NCCCN1	ATP	-	1.44 µg/mL
NC(=NCC1CCCC1)c1ccc(N2CCCN(c3ccc(C(N)=NCC4CCCC4)cc3)CC2)cc1	-	-	>1 µM
N=C(N)c1ccc(OCCCCOc2ccc(C(=N)N)cc2)cc1	-	-	<0.2 µM
NCCCNCCCCCCCNCCCN	-	-	>30 µM
N=C(N)c1ccc(OC/C=C\COc2ccc(C(=N)N)cc2)cc1	-	-	<0.2 µM
CC(C)CN(C[C@@H](O)[C@H](Cc1ccccc1)NC(=O)O[C@H]1CCOC1)S(=O)(=O)c1ccc(N)cc1	-	-	<0.32 µM
Cc1[nH]c2nc(N)[nH]c(=O)c2c1CSc1ccncc1	-	-	<32 µM
COc1cc(NCc2ccc3nc(N)nc(N)c3c2C)cc(OC)c1OC	-	-	10 µg/mL